Human monoclonal antibodies against the spike receptor-binding domain (heavy:light variable regions). IC50 against pseudoviruses bearing the spike of naturally observed variants; lower = stronger; >10 µg/ml means not reached at the top dose. No active / inactive call. The stated detection limit is 0.0005 µg/ml; values near or below 0.001 µg/ml lie at the floor of the assay.
B1: BD55-5175 (protein)
chain 1: QVQLVQSGPELKRPGASVKVSCETSGYTFTDYAINWVRQAPGQGLEWMGWINTNTGHPTYAQGFTGRFVFSVDMSDSTAYLQISSLKPADTAVYYCARDFQVPEGLDYWGQGTLVTVSS
chain 2: DIVMTQSPATLSLSPGETATLSCRASYSFTSRLAWYQQKPGQAPRLLIHDASNRAPGVPARFSGSGSGTEFTLAISGLQSEDSAVYYCQQYHSWPLTFGQGTKVEIK
B2: BD55-5176 (protein)
chain 1: EVQLVQSGAEVKKPGESLKISCKGSGSSFITYWIGWVRQMPGKGLEWMGIIYPGDSDSRYSSSFQGQVTISADKAISTAYLQWHSLKASDTAMYFCVGTSGYLGDAFDSWGQGTMVTVSS
chain 2: DIVMTQSPDSLAVSLGERATIICRSSQSVLHSSVNKNYLAWYQQKPRQPPKLLMYWASTRESGVPDRFSGSGSGTDFSLTISSLQAEDVAVYYCQQYYTSPYTFGQGTKLEIK
B3: BD55-5182 (protein)
chain 1: EVQLVESGGGLVKPGGSLRLSCAASGFTLSNAWMTWVRQAPGKGLEWIARIKGKVDGATRDYAAPVKGRFTISTDDSKTTLFLQMNTLKTEDTAVYFCTALFTSYDMLTGRAGGRGYWGQGTLVTVSS
chain 2: NVMLTQPHSVSESPGKTVTISCTRSSGSIASNYVQWYQQRPGSAPTTVIYEDNQRPSGVPDRFSGSIDSSSNSASLTISGLETEDEADYYCQSFDSSNHMNWVFGGGTKLTVL
B4: BD55-5183 (protein)
chain 1: QVQLVQSGGEVKKPGSSVKVSCRASGGTFSGYTISWVRRAPGQGLEWMGGIIPMYGAANYAQKFQGRVTISAETSTGTAYMELSGLTSDDTAMYYCARDLGGEDITVAGKAPDYWGQGTLVTVSS
chain 2: DIQMTQSPSSLSASVGDRVTVTCRASQSISKYLNWYQERPGKAPKLLIYTASSLPSEVPSRFSGSGFGTDFTLTISGLQPEDFATYYCQQSYSLPYTFGQGTKLEIK
B5: BD55-5195 (protein)
chain 1: QLQLQESGPRLVKPSETLSLTCSVSGGSIRSNSDYWAWIRQSPGQGLEWIGSISHSGSTYYNPSLKSRVSIFVDTSSNQFSLNLTSVTAADTAVYHCARHPSSGWLILWFDPWGQGTLVTVSS
chain 2: EIVLTQSPGTLSLSPGERATLSCRASQSISSNFLAWYQQKPGQAPRLLIYGASNRATDIPDRFSGSGSGTDFTLTVRRLEPEDFAVYYCHQYDTSPQTFGQGTKVEIK
B6: BD55-5196 (protein)
chain 1: QVHLVQSGAEVRKPGASVKVSCKASGYTFTSYFMYWVRQAPGHGLEWMGMIDPISGSTNYAQRFQGRVTMTRDTSTSTVNMELTSLRSEDTAVYYCARDGGIRFGDLSPDNWFDPWGRGTLVTVSS
chain 2: QSVLTQPPSVSGAPGQRVTISCTGSSSNLGAGYDVHWYQQLPGTAPKLLIYGNNNRPSGVPDRFSGSRSGTSASLAITGLLAEDEADYYCQSYDSSSLSGSKVFGTGTTVTVL

The binders below were run against SARS-CoV-2 Omicron BA.1 spike pseudovirus (assay: pseudovirus neutralization IC50; higher = weaker neutralization).
Procedure: (§1)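 Single-round VSV luciferase pseudovirus mixed with antibody dilutions for 1 h and put on Huh-7 cells for about a day; IC50 from the dose curve.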
With B1 the “pseudovirus neutralization IC50” value was over 10 µg/mL.
B2 was tested, and the “pseudovirus neutralization IC50” value was over 10 µg/mL.
B3 was tested, and the “pseudovirus neutralization IC50” value was over 10 µg/mL.
B4 was tested, and the “pseudovirus neutralization IC50” value was over 10 µg/mL.
With B5 the “pseudovirus neutralization IC50” value was over 10 µg/mL.
For B6, the “pseudovirus neutralization IC50” value was over 10 µg/mL.

These binders were tested against SARS-CoV-2 Omicron BA.2 spike pseudovirus in the same assay as above.
Procedure: as §1
For B1, the “pseudovirus neutralization IC50” value was over 10 µg/mL.
B2 was tested, and the “pseudovirus neutralization IC50” value was over 10 µg/mL.
With B3 the “pseudovirus neutralization IC50” value was over 10 µg/mL.
For B4, the “pseudovirus neutralization IC50” value was over 10 µg/mL.
In the case of B5, the “pseudovirus neutralization IC50” value is reported as over 10 µg/mL.
With B6 the “pseudovirus neutralization IC50” value was over 10 µg/mL.

The binders below were run against SARS-CoV-2 Omicron BA.2.75 spike pseudovirus in the same assay as above.
Procedure: as §1
For B1, the “pseudovirus neutralization IC50” value was over 10 µg/mL.
B2 was tested, and the “pseudovirus neutralization IC50” value was over 10 µg/mL.
B3 was tested, and the “pseudovirus neutralization IC50” value was over 10 µg/mL.
In the case of B4, the “pseudovirus neutralization IC50” value is reported as over 10 µg/mL.
With B5 the “pseudovirus neutralization IC50” value was over 10 µg/mL.
For B6, the “pseudovirus neutralization IC50” value was over 10 µg/mL.

The binders below were run against SARS-CoV-2 Omicron BA.5 spike pseudovirus in the same assay as above.
Procedure: as §1
In the case of B1, the “pseudovirus neutralization IC50” value is reported as over 10 µg/mL.
B2 was tested, and the “pseudovirus neutralization IC50” value was over 10 µg/mL.
For B3, the “pseudovirus neutralization IC50” value was over 10 µg/mL.
In the case of B4, the “pseudovirus neutralization IC50” value is reported as over 10 µg/mL.
B5 was tested, and the “pseudovirus neutralization IC50” value was over 10 µg/mL.
For B6, the “pseudovirus neutralization IC50” value was over 10 µg/mL.

Each binder was assayed against SARS-CoV-2 Omicron BQ.1.1 spike pseudovirus in the same assay as above.
Procedure: as §1
For B1, the “pseudovirus neutralization IC50” value was over 10 µg/mL.
For B2, the “pseudovirus neutralization IC50” value was over 10 µg/mL.
For B3, the “pseudovirus neutralization IC50” value was over 10 µg/mL.
With B4 the “pseudovirus neutralization IC50” value was over 10 µg/mL.
For B5, the “pseudovirus neutralization IC50” value was over 10 µg/mL.
With B6 the “pseudovirus neutralization IC50” value was over 10 µg/mL.

Each binder was assayed against SARS-CoV-2 Omicron XBB spike pseudovirus in the same assay as above.
Procedure: as §1
With B1 the “pseudovirus neutralization IC50” value was over 10 µg/mL.
For B2, the “pseudovirus neutralization IC50” value was over 10 µg/mL.
For B3, the “pseudovirus neutralization IC50” value was over 10 µg/mL.
With B4 the “pseudovirus neutralization IC50” value was over 10 µg/mL.
In the case of B5, the “pseudovirus neutralization IC50” value is reported as over 10 µg/mL.
B6 was tested, and the “pseudovirus neutralization IC50” value was over 10 µg/mL.

Each binder was assayed against SARS-CoV-2 early D614G spike pseudovirus in the same assay as above.
Procedure: as §1
For B1, the “pseudovirus neutralization IC50” value was 0.001 µg/mL.
B2 was tested, and the “pseudovirus neutralization IC50” value was over 10 µg/mL.
With B3 the “pseudovirus neutralization IC50” value was 0.256 µg/mL.
For B4, the “pseudovirus neutralization IC50” value was 0.382 µg/mL.
With B5 the “pseudovirus neutralization IC50” value was 0.319 µg/mL.
For B6, the “pseudovirus neutralization IC50” value was 0.245 µg/mL.
